Measurements taken from article PMC5431807, “Structural Basis for Importin-α Binding of the Human Immunodeficiency Virus Tat” (Scientific Reports, 2017).
Entries after “also recorded” stand apart in the source; their conditions may differ.

Test system: importin-β
Assay: Binding of importin-β to immobilised GST-Tat:NLS/CPP on glutathione column, SDS-PAGE
Design: species or system mouse
Conditions: GST-Tat:NLS/CPP fusion immobilised on glutathione column, importin-β passed over

“GRKKRRQRRRAPQN [Tat:NLS/CPP, entire cell penetrating region of HIV-1 Tat, residues 48–61, recombinantly expressed as a GST-fusion, tag cleaved by TEV for crystallisation]” was tested, and the “binding to importin-β (column retention / complex formation)” value was “lack of complex formation; also recorded: no direct interaction”.
